Compound potency records, mixed from different reports. Data source: NIAID ChemDB in PubChem.

Shared fields: tests on isolated targets; organism: Hepatitis C virus; target: RNA-dependent RNA polymerase; read-out: IC50

Conditions beyond the fields shown may differ between rows.

{"smiles": "CN1CCN(/N=C\\c2cc(O)c(O)c(O)c2)CC1", "result": "10 µM"}
{"smiles": "N#Cc1cnn2c(-c3ccccc3)c(-c3ccc(Oc4ccccc4)cc3)cnc12", "result": ">10 µM"}
{"smiles": "O=Cc1ccc(O)c(O)c1", "result": ">1000 µM"}
{"smiles": "COc1cc(F)cc(-c2cc(-c3ccc(C(F)(F)F)cc3)nc3cc(C(=O)O)nn23)c1", "result": ">10 µM"}
{"smiles": "COc1cc(C(=O)N2[C@@H](c3nccs3)[C@@H](c3nc(C)no3)C[C@@]2(C)C(=O)O)ccc1C(C)(C)C", "result": "<50 µM"}
{"smiles": "c1ccc(COc2ccc(-c3cnc4c(-c5nn[nH]n5)cnn4c3-c3ccccc3)cc2)cc1", "result": ">10 µM"}
{"smiles": "Cc1ccc(C(=O)NCCc2ccccn2)c(Nc2ccc3[nH]ncc3c2)n1", "result": "<0.1 µg/mL"}
{"smiles": "O=C(O)[C@H](Cc1ccccc1)N(Cc1cc(-c2ccc(Cl)c(Cl)c2)cs1)C(=O)c1ccc(Cl)cc1Cl", "result": "<5 µM"}
{"smiles": "COc1ccc(-c2ccc(-c3ccnc4cc(C(=O)O)nn34)cc2)cc1", "result": ">10 µM"}
{"smiles": "CC(C)C[C@@]1(C(=O)O)C[C@H](c2nnnn2C)[C@H](c2nccs2)N1C(=O)c1ccc(C(C)(C)C)c(Br)c1", "result": "<50 µM"}
{"smiles": "O=C(O)c1cc2nc(-c3ccc(OCc4cccc(C(F)(F)F)c4)cc3)c(C3CCCCC3)c(=O)n2[nH]1", "result": "1–10 µM"}
{"smiles": "CN1CCN(/N=C\\c2ccc(O)c(O)c2O)CC1", "result": "30–40 µM"}
{"smiles": "COc1cccc(-c2ccc(-c3cnc4c(C(=O)O)cnn4c3C3CCCCC3)cc2)c1", "result": "1–10 µM"}
{"smiles": "NN1CCN(/N=C\\c2ccc(O)c(O)c2)CC1", "result": "100–200 µM"}
{"smiles": "Cc1ccc(C(=O)NCc2cccnc2)c(Nc2ccc3cn[nH]c3c2)n1", "result": "~0.1 µg/mL"}
{"smiles": "C[N+]1(C)CCN(/N=C\\c2ccc(O)c(O)c2)CC1", "result": ">400 µM"}
{"smiles": "Cc1ccc(C(=O)NC2CCC(O)CC2)c(Nc2ccc3[nH]ncc3c2)n1", "result": "<0.1 µg/mL"}
{"smiles": "O=C(O)c1cc2nc(-c3cccc(Cl)c3)cc(-c3cccc(F)c3)n2n1", "result": ">10 µM"}
{"smiles": "COc1ccc(-c2csc(CN(C(=O)c3ccc(Cl)cc3Cl)C(Cc3ccccc3)C(=O)O)c2)cc1", "result": "<5 µM"}
{"smiles": "CC(C)C[C@@]1(C(=O)O)C[C@H](c2ncn[nH]2)[C@H](c2nccs2)N1C(=O)c1ccc(C(C)(C)C)cc1", "result": "<50 µM"}
{"smiles": "COc1cccc(-c2cc(-c3ccc(Oc4ccccc4)cc3)nc3cc(C(=O)O)nn23)c1", "result": "1–10 µM"}
{"smiles": "O=C(O)[C@H](Cc1ccccc1)N(Cc1ccc(-c2ccc(Br)cc2)o1)C(=O)c1ccc(Cl)cc1Cl", "result": "<5 µM"}
{"smiles": "O=C(O)c1cc2nc(-c3ccc(Cl)cc3)cc(-c3ccc(Oc4ccccc4)cc3)n2n1", "result": "1–10 µM"}
{"smiles": "CC(C)C[C@@]1(C(=O)O)C[C@H](c2nnco2)[C@H](c2nccs2)N1C(=O)c1ccc(C(C)(C)C)cc1", "result": "<50 µM"}
{"smiles": "Cc1ccc(C(=O)NN2CCN(C)CC2)c(Nc2ccc3cn[nH]c3c2)n1", "result": "<1 µg/mL"}
{"smiles": "COc1cc(C(=O)N2[C@@H](c3nccs3)[C@](C)(c3noc(C)n3)C[C@@]2(CC(C)C)C(=O)O)ccc1C(C)(C)C", "result": "<50 µM"}
{"smiles": "O=C(O)[C@H](Cc1ccccc1)N(Cc1cc(-c2ccc(F)c(Cl)c2)cs1)C(=O)c1ccc(Cl)cc1Cl", "result": "<5 µM"}
{"smiles": "Cc1ccc(C(=O)NC(C)C)c(Nc2ccc3cn[nH]c3c2)n1", "result": "<1 µg/mL"}
{"smiles": "COc1cc(C(=O)N2[C@@H](c3cccs3)[C@@H](c3noc(C)n3)C[C@@]2(CC(C)C)C(=O)O)ccc1C(C)(C)C", "result": "<50 µM"}

Repeating the first 3 entries:

CN1CCN(/N=C\c2cc(O)c(O)c(O)c2)CC1 ; result: 10 µM
N#Cc1cnn2c(-c3ccccc3)c(-c3ccc(Oc4ccccc4)cc3)cnc12 ; result: >10 µM
O=Cc1ccc(O)c(O)c1 ; result: >1000 µM

Two numbers with a dash give a range or band. ICn is the concentration giving n% inhibition.